Article PMC9232611

Biological target: Human PAI1 (human) (UniProt P05121)
Assay: SPR; Biacore X100; human PAI1 amine-coupled on flow cell 2 of a CM5 chip (300-500 RU); rhPRG4 injected at at least 5 concentrations, 2.74-2000 µg/mL, 30 µL/min, contact time 1 min, 25 °C; PBS with 0.01% (v/v) Tween 20; regeneration with 1 M NaCl

Full length recombinant human lubricin protein (rhPRG4) (from UniProt Q92954 25-1404) (natural protein; other documents disagree on this pair)
Kd: 2700 nM
